Data reported in patent publication US20230399384A1 (University of Texas, published 2023).

Legend:
[1] = molecular target: T1, sCoV2-RBD (Fc-tagged RBD of SARS-CoV-2 S protein) (SARS-CoV-2; human); test: BLI (Octet) blocking of ACE2 binding to captured sCoV2-RBD
[2] = molecular target: SARS-CoV-2 RBD protein (Sino Biological, Cat: 40592-V08B) (SARS-CoV-2)
[3] = molecular target: sCoV-RBD (Fc-tagged RBD of SARS-CoV S protein) (SARS-CoV; human); test: phage ELISA, scFv on phage
S protein of SARS-CoV = S protein of SARS-CoV (SARS-CoV); test: ELISA, purified IgG1 on coated S protein
[4] = molecular target: T1, sCoV2-RBD (Fc-tagged RBD of SARS-CoV-2 …); test: ELISA titration on coated sCoV2-RBD
[5] = molecular target: SARS-CoV-2 S protein on live SARS-CoV-2-mNG reporter virus (SARS-CoV-2); test: cell-based or functional assay

B1: CoV2-25 (antibody, V domains shown)
VH: QVQLVESGAEVKKPGASVKVSCKASGYTFTGYYMHWVRQAPGQGLEWMGRINPNSGGTNYAQKFQGRVTMTRDTSISTAYMELSRLRSDDTAVYYCARGYFDYWGQGTLVTVSS
VL: QAVVTQPPSTSGTPGQRVTIS[sequence of about 80 residues omitted]FGGGTKVTVL
With B1 the IC50 [1] was 3.82 µg/mL, the Kd [2] was 3.78 nM and the binding result [3] was “no binding”. For the same binder, the binding result (S protein of SARS-CoV) was “no binding (tested: one concentration, not printed)”, the EC50 [4] was 0.84 nM and the “NC50 (neutralisation of reporter SARS-CoV-2, Vero E6 cells)” value [5] was 1.24 µg/mL.
